{"source": "PubChem BioAssay AID624099 (ICCB-Longwood, 2012)", "assay": "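Host factors E2 relies on to silence an HPV18 LCR reporter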 (primary screen)", "system": "human C33A cervical carcinoma cells (HPV-negative) stably expressing BPV1 E2 and an HPV18 LCR luciferase reporter", "reagents": "siRNA pool against human genes, 40 nM", "time to read-out": "72 h", "detection": "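HPV18 LCR reporter light per well, converted to plate-wise z-scores that exclude control wells, and averaged over triplicate plates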", "scale": "mean z-score and z-score: higher = stronger reporter signal, weaker E2 silencing", "rule for the call": "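Mean z ≥ 2 together with z ≥ 2 in two or more of the three replicates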", "note": "This is one part, drawn at random, of about 21,000 reagents. 497 of them (2.4%) were called active. 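Higher z means weaker E2 silencing; only reporter increases were scored, and knock-downs that hurt cell survival may mask genuine repressor factors.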"}
{"Gene": "PRELID1P5", "mean z-score": -0.15, "z-score, replicate A": -0.38, "z-score, replicate B": -0.12, "z-score, replicate C": 0.04, "Call": "inactive"}
{"Gene": "KIF4B", "mean z-score": 2.15, "z-score, replicate A": 2.26, "z-score, replicate B": 2.11, "z-score, replicate C": 2.08, "Call": "active"}
{"Gene": "HES2", "mean z-score": 0.66, "z-score, replicate A": 0.49, "z-score, replicate B": 0.72, "z-score, replicate C": 0.76, "Call": "inactive"}
{"Gene": "BHLHA9", "mean z-score": -0.84, "z-score, replicate A": -0.81, "z-score, replicate B": -0.67, "z-score, replicate C": -1.04, "Call": "inactive"}
{"Gene": "LINC02783", "mean z-score": 1.95, "z-score, replicate A": 2.77, "z-score, replicate B": 1.44, "z-score, replicate C": 1.63, "Call": "inactive"}
{"Gene": "ARCN1", "mean z-score": -1.49, "z-score, replicate A": -1.61, "z-score, replicate B": -1.56, "z-score, replicate C": -1.29, "Call": "inactive"}
{"Gene": "TCEAL2", "mean z-score": 2.24, "z-score, replicate A": 2.21, "z-score, replicate B": 2.28, "z-score, replicate C": 2.24, "Call": "active"}
{"Gene": "PGBD4", "mean z-score": 1.3, "z-score, replicate A": 1.15, "z-score, replicate B": 0.93, "z-score, replicate C": 1.83, "Call": "inactive"}
{"Gene": "DKFZp686M1136 (retired record)", "mean z-score": -1.22, "z-score, replicate A": -1.27, "z-score, replicate B": -1.1, "z-score, replicate C": -1.3, "Call": "inactive"}
{"Gene": "DIAPH3", "mean z-score": 0.44, "z-score, replicate A": 0.44, "z-score, replicate B": 0.49, "z-score, replicate C": 0.38, "Call": "inactive"}
{"Gene": "NPBWR1", "mean z-score": 0.02, "z-score, replicate A": -0.23, "z-score, replicate B": 0.37, "z-score, replicate C": -0.07, "Call": "inactive"}
{"Gene": "KRT12", "mean z-score": 0.35, "z-score, replicate A": 0.55, "z-score, replicate B": 0.29, "z-score, replicate C": 0.2, "Call": "inactive"}
